Compound potency records, mixed from different reports. Data source: NIAID ChemDB in PubChem.

Shared fields: whole-cell or culture tests; agent: Hepatitis C virus; cell line: Huh 5-2; endpoint: EC50

Conditions beyond the fields shown may differ between rows. ECn: concentration that inhibits the pathogen or its effect by n%.

COC(=O)/C=C1\S/C(=N/N=C/c2cc(OC)c(O)c(OC)c2)NC1=O ; strain: 1b Con1 (replicon) ; method: luciferase / luminescence ; value: 22.2 µM
C[C@@]1(O)[C@H](O)[C@@H](CO)O[C@H]1n1cnc2c(N)ncnc21 ; strain: genotype 1 ; method: luciferase ; value: 0.3 µM
Brc1ccc(Cn2cc3nc(-c4ccccc4)nc-3c(Br)c2)cc1 ; method: replicon ; value: <0.62 µg/mL
CCCN(CCC)CCSc1nnc2c(n1)[nH]c1ccccc12 ; strain: genotype 1b ; method: cytopathic effect ; value: >50 µM
N#Cc1c(C(=O)Nc2ccc(Cl)cc2)nn(-c2ccc(Cl)cc2)c1-n1cccc1 ; strain: Con1 (gt 1b) ; method: luciferase / replicon ; value: 5.5 µM
Nc1ccc(S(=O)(=O)/N=C2/NC(=O)/C(=C/c3ccccc3Cl)S2)cc1 ; strain: 1b ; method: luciferase ; value: 95.67 µM
O=C(Nc1ccc(Cl)cc1)c1cc(-n2cccc2)n(-c2ccccc2)n1 ; strain: Con1 (gt 1b) ; method: luciferase / replicon ; value: 5.9 µM
O=c1cc(OCc2ccc(Cl)cc2)oc2cc(-c3ccccc3)c(OCc3ccc(Cl)cc3)c(O)c12 ; method: luciferase ; value: 9 µM
Nc1ccc(S(=O)(=O)/N=C2/NC(=O)/C(=C/c3ccc(-c4ccccc4)cc3)S2)cc1 ; strain: 1b ; method: luciferase ; value: >115 µM
COC(=O)/C=C1\S/C(=N/N=C/c2c(F)cccc2Cl)NC1=O ; strain: 1b Con1 (replicon) ; method: luciferase / luminescence ; value: 3.26 µM
N#Cc1c(C(=O)Nc2ccc(Cl)cc2)nn(-c2ccccc2)c1-n1cccc1 ; strain: Con1 (gt 1b) ; method: luciferase / replicon ; value: 7.8 µM
CNc1ncnc2c1ncn2[C@@H]1O[C@H](CO)[C@](O)(CN=[N+]=[N-])[C@H]1O ; strain: genotype 1 ; method: luciferase ; value: >100 µM
O=C(Nc1ccc(Cl)cc1)c1cnn(-c2ccc(Cl)cc2)c1-n1cccc1 ; strain: Con1 (gt 1b) ; method: luciferase / replicon ; value: 13.7 µM
NC(=O)c1nc(C#CCC2(O)CCCCC2)n(COCCO)n1 ; method: luciferase / reporter gene ; value: >50 µg/mL
O=c1oc2ccccc2cc1CSc1nc2ccc(F)cc2[nH]1 ; method: luciferase / replicon ; value: 11 µM
NC(=O)c1nc(C#CCc2ccc(C(F)(F)F)cc2)n(COCCO)n1 ; method: luciferase / reporter gene ; value: 5 µg/mL
Cc1c(C(=O)Nc2ccccc2)nn(-c2ccccc2)c1-n1cccc1 ; strain: Con1 (gt 1b) ; method: luciferase / replicon ; value: 6.7 µM
Nc1cnn(C[C@H](CO)OCP(=O)(O)O)c(=O)n1 ; method: cytopathic effect ; value: >75 µg/mL
O=c1cc(OCc2cccc(F)c2)oc2cc(-c3ccccc3)c(OCc3cccc(F)c3)c(O)c12 ; method: luciferase ; value: 10 µM
N#Cc1c(C(=O)Nc2ccc(Cl)c(Cl)c2)nn(-c2ccccc2)c1-n1cccc1 ; strain: Con1 (gt 1b) ; method: luciferase / replicon ; value: 108.1 µM
COC(=O)/C=C1\S/C(=N/N=C/c2ccc(OCc3ccccc3)cc2)NC1=O ; strain: 1b Con1 (replicon) ; method: luciferase / luminescence ; value: 12.8 µM
O=C(Nc1ccc(Cl)c(Cl)c1)c1cc(-n2cccc2)n(-c2ccc(Cl)cc2)n1 ; strain: Con1 (gt 1b) ; method: luciferase / replicon ; value: >159 µM
N#Cc1cccc(COc2cc(=O)c3c(O)c(OCc4cccc(C#N)c4)c(-c4ccccc4)cc3o2)c1 ; method: luciferase ; value: 42 µM
Ic1ccc(Cn2ccc3nc(-c4ccccc4)nc-3c2)cc1 ; method: replicon ; value: <0.62 µg/mL
COc1ccccc1N1CCN(C(=O)CNc2ccc(S(=O)(=O)/N=C3\NC(=O)/C(=C/c4ccc(-c5ccccc5)cc4)S3)cc2)CC1 ; strain: 1b ; method: luciferase ; value: 0.79 µM
Cc1ccc(CC#Cc2nc(C(N)=O)nn2COCCO)cc1 ; method: luciferase / reporter gene ; value: 16 µg/mL
COc1ccc(/C=C2\S/C(=N/S(=O)(=O)c3ccc(F)cc3)NC2=O)cc1 ; strain: 1b ; method: luciferase ; value: 74.74 µM
O=c1cc(OCc2cccc(I)c2)oc2cc(-c3ccccc3)c(OCc3cccc(I)c3)c(O)c12 ; method: luciferase ; value: 50 µM
O=C(Nc1ccc(Cl)c(Cl)c1)c1cc(-n2cccc2)n(-c2ccccc2)n1 ; strain: Con1 (gt 1b) ; method: luciferase / replicon ; value: 39.8 µM
NC(=O)c1nc(C#CCc2cccc(F)c2)n(COCCO)n1 ; method: luciferase / reporter gene ; value: 10 µg/mL
COc1ccc(N(Cc2c(Cl)cccc2Cl)S(=O)(=O)c2cccc(C#N)c2)cc1C(=O)O ; strain: 1b ; method: PCR ; value: 1.3 µM
Cc1c(C(=O)Nc2ccc(Cl)cc2)nn(-c2ccccc2)c1-n1cccc1 ; strain: Con1 (gt 1b) ; method: luciferase / replicon ; value: 16.5 µM

Repeating the final 3 entries:

NC(=O)c1nc(C#CCc2cccc(F)c2)n(COCCO)n1 ; method: luciferase / reporter gene ; value: 10 µg/mL
COc1ccc(N(Cc2c(Cl)cccc2Cl)S(=O)(=O)c2cccc(C#N)c2)cc1C(=O)O ; strain: 1b ; method: PCR ; value: 1.3 µM
Cc1c(C(=O)Nc2ccc(Cl)cc2)nn(-c2ccccc2)c1-n1cccc1 ; strain: Con1 (gt 1b) ; method: luciferase / replicon ; value: 16.5 µM